{"source": "PubChem BioAssay AID624099 (ICCB-Longwood, 2012)", "aim": "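Human genes that papillomavirus E2 requires to repress the HPV18 LCR promoter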 (primary screen)", "cells": "human C33A cervical carcinoma cells (HPV-negative) stably expressing BPV1 E2 and an HPV18 LCR luciferase reporter", "knock-down reagent": "siRNA pool against human genes, 40 nM", "duration": "72 h", "detection": "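HPV18 LCR reporter light per well, converted to plate-wise z-scores that exclude control wells, and averaged over triplicate plates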", "scale": "mean z-score and z-score: higher = stronger reporter signal, weaker E2 silencing", "call rule": "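Mean z ≥ 2 together with z ≥ 2 in two or more of the three replicates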", "note": "Here is an unselected part of about 21,000 deposited reagents. 497 of them (2.4%) were called active. 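Higher z means weaker E2 silencing; only reporter increases were scored, and knock-downs that hurt cell survival may mask genuine repressor factors.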"}
{"gene knocked down":"CTNNA2","mean z-score":0.2,"z-score, replicate A":0.06,"z-score, replicate B":0.02,"z-score, replicate C":0.52,"Call":"inactive"}
{"gene knocked down":"RCN2","mean z-score":0.26,"z-score, replicate A":-0.02,"z-score, replicate B":0.46,"z-score, replicate C":0.33,"Call":"inactive"}
{"gene knocked down":"B3GNT4","mean z-score":0.86,"z-score, replicate A":0.97,"z-score, replicate B":0.85,"z-score, replicate C":0.76,"Call":"inactive"}
{"gene knocked down":"ESRP2","mean z-score":-2.08,"z-score, replicate A":-1.96,"z-score, replicate B":-2.06,"z-score, replicate C":-2.22,"Call":"inactive"}
{"gene knocked down":"LOC387870 (retired record)","mean z-score":-0.06,"z-score, replicate A":-0.28,"z-score, replicate B":0.03,"z-score, replicate C":0.07,"Call":"inactive"}
{"gene knocked down":"CTNNBL1","mean z-score":0.31,"z-score, replicate A":0.35,"z-score, replicate B":0.45,"z-score, replicate C":0.13,"Call":"inactive"}
{"gene knocked down":"FAAP100","mean z-score":0.34,"z-score, replicate A":0.33,"z-score, replicate B":0.45,"z-score, replicate C":0.23,"Call":"inactive"}
{"gene knocked down":"SCGB1D1","mean z-score":-0.21,"z-score, replicate A":-0.26,"z-score, replicate B":0.16,"z-score, replicate C":-0.54,"Call":"inactive"}
{"gene knocked down":"LINC01102","mean z-score":-0.09,"z-score, replicate A":0.55,"z-score, replicate B":-0.37,"z-score, replicate C":-0.44,"Call":"inactive"}
{"gene knocked down":"ZNF630","mean z-score":0.03,"z-score, replicate A":0.14,"z-score, replicate B":-0.04,"z-score, replicate C":-0.02,"Call":"inactive"}
{"gene knocked down":"PMS2P2","mean z-score":2.68,"z-score, replicate A":2.8,"z-score, replicate B":2.65,"z-score, replicate C":2.58,"Call":"active"}
{"gene knocked down":"ANXA10","mean z-score":0.88,"z-score, replicate A":0.95,"z-score, replicate B":0.62,"z-score, replicate C":1.06,"Call":"inactive"}
{"gene knocked down":"HDIP1","mean z-score":0.07,"z-score, replicate A":-0.08,"z-score, replicate B":-0.03,"z-score, replicate C":0.32,"Call":"inactive"}
{"gene knocked down":"OR5AC2","mean z-score":0.29,"z-score, replicate A":0.45,"z-score, replicate B":-0.05,"z-score, replicate C":0.46,"Call":"inactive"}
{"gene knocked down":"TLCD4","mean z-score":0.82,"z-score, replicate A":1.92,"z-score, replicate B":0.31,"z-score, replicate C":0.22,"Call":"inactive"}
{"gene knocked down":"LOC388735 (retired record)","mean z-score":0.06,"z-score, replicate A":-0.78,"z-score, replicate B":0.25,"z-score, replicate C":0.71,"Call":"inactive"}
{"gene knocked down":"SERPINA5","mean z-score":1.78,"z-score, replicate A":1.77,"z-score, replicate B":1.77,"z-score, replicate C":1.8,"Call":"inactive"}
{"gene knocked down":"PIP5K1C","mean z-score":0.11,"z-score, replicate A":-0.43,"z-score, replicate B":0.51,"z-score, replicate C":0.23,"Call":"inactive"}
{"gene knocked down":"CCDC85A","mean z-score":1.8,"z-score, replicate A":2.12,"z-score, replicate B":1.8,"z-score, replicate C":1.49,"Call":"inactive"}
{"gene knocked down":"TUBA1B","mean z-score":0.48,"z-score, replicate A":0.34,"z-score, replicate B":0.43,"z-score, replicate C":0.68,"Call":"inactive"}
{"gene knocked down":"RBM3","mean z-score":0.18,"z-score, replicate A":0.19,"z-score, replicate B":0.16,"z-score, replicate C":0.19,"Call":"inactive"}

2 entries already listed, arranged by “z-score, replicate B”, descending:
{"gene knocked down":"TLCD4","mean z-score":0.82,"z-score, replicate A":1.92,"z-score, replicate B":0.31,"z-score, replicate C":0.22,"Call":"inactive"}
{"gene knocked down":"LOC388735 (retired record)","mean z-score":0.06,"z-score, replicate A":-0.78,"z-score, replicate B":0.25,"z-score, replicate C":0.71,"Call":"inactive"}
